According to patent publication US7384920B2, “Use of stilbene compounds in the manufacture of medicament for the prevention and treatment of diabetes or retrovirus-associated diseases” (priority 2001, dated 2008):

Test system: mice
Conditions: mouse, in vivo

Substance: 3,3′,4′,5-quadrahydroxystilbene-4′-O-β-D-glucopyranoside [Compound E1]
- Toxicity (in words): very low
